Results deposited as PubChem BioAssay AID504761 (Drosophila RNAi Screening Center, 2011).

Screen: 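Insect host genes that dengue virus relies on to spread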 (primary screen)
Cell system: D.Mel-2 cells from Drosophila
Reagent: long dsRNA against Drosophila genes
Treatment: infection with dengue virus type 2; dose and infection time not stated
Read-out: 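Per well on two replicate plates, imaging gave the percent of cells positive for viral envelope protein, ranked by infection, and a nuclear count of cells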
Scale: infection score: higher = more virus-infected cells; cell count: higher = more cells in the well
Active means: 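Low infection ranks in the two replicates (chance level up to 0.065) followed by a retest with a 1.5-fold or larger significant decrease, p below 0.05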
Calls: active = confirmed: knock-down lowers infection; inactive = not picked or not confirmed
In all, the deposit lists about 22,000 reagents; this is a random part of those that have a named target and a result. Over the whole deposit, 116 (0.52%) got an active call. 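Calls depend on retest data that are not deposited; infection was ranked per plate without normalising between plates; the unit of the infection score is not given.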 The raw values are shown without normalisation. Names joined by + are all predicted targets of the reagent. No sequences are given here. Not given: the amount of reagent, the time to read-out.

RpL10Aa [DRSC15518] — infection score, replicate 1 = 7.71; infection score, replicate 2 = 20.5; cell count, replicate 1 = 7042; cell count, replicate 2 = 4286; activity call = inactive
wrm1 [DRSC11007] — infection score, replicate 1 = 6.85; infection score, replicate 2 = 5.98; cell count, replicate 1 = 5768; cell count, replicate 2 = 6035; activity call = inactive
wrm1 [DRSC24006] — infection score, replicate 1 = 4.78; infection score, replicate 2 = 8.99; cell count, replicate 1 = 6297; cell count, replicate 2 = 4741; activity call = inactive
HLH4C [DRSC18670] — infection score, replicate 1 = 0.93; infection score, replicate 2 = 5.04; cell count, replicate 1 = 6128; cell count, replicate 2 = 7181; activity call = inactive
HLH4C [DRSC21322] — infection score, replicate 1 = 0.78; infection score, replicate 2 = 2.02; cell count, replicate 1 = 6179; cell count, replicate 2 = 6724; activity call = inactive
HLH4C [DRSC25228] — infection score, replicate 1 = 11.1; infection score, replicate 2 = 0.77; cell count, replicate 1 = 6192; cell count, replicate 2 = 5723; activity call = inactive
Acsx1R + Acsx1L [DRSC24222] — infection score, replicate 1 = 1.99; infection score, replicate 2 = 13.7; cell count, replicate 1 = 6180; cell count, replicate 2 = 6426; activity call = inactive
Ugt302K1 [DRSC16086] — infection score, replicate 1 = 7.1; infection score, replicate 2 = 8.49; cell count, replicate 1 = 6351; cell count, replicate 2 = 6539; activity call = inactive

Look-ups from the list.
Under “activity call”, wrm1 [DRSC11007] shows inactive
For “activity call”, HLH4C [DRSC25228] reads inactive

The results go on.
RpS16 [DRSC04442] — infection score, replicate 1 = 46.1; infection score, replicate 2 = 34.5; cell count, replicate 1 = 5586; cell count, replicate 2 = 5897; activity call = inactive
RpS16 [DRSC29812] — infection score, replicate 1 = 26.1; infection score, replicate 2 = 16.3; cell count, replicate 1 = 3095; cell count, replicate 2 = 3585; activity call = inactive
Ac13E [DRSC19325] — infection score, replicate 2 = 18.6; cell count, replicate 1 = 446; cell count, replicate 2 = 5523; activity call = inactive
Ac13E [DRSC27333] — infection score, replicate 1 = 3.17; infection score, replicate 2 = 12.3; cell count, replicate 1 = 6536; cell count, replicate 2 = 6483; activity call = inactive
HPS1 [DRSC06195] — infection score, replicate 1 = 16.5; infection score, replicate 2 = 12; cell count, replicate 1 = 6054; cell count, replicate 2 = 6927; activity call = inactive
Nadk1b [DRSC06964] — infection score, replicate 1 = 8.47; infection score, replicate 2 = 9.14; cell count, replicate 1 = 6231; cell count, replicate 2 = 6082; activity call = inactive
Nadk1b [DRSC06965] — infection score, replicate 1 = 23.3; infection score, replicate 2 = 27.7; cell count, replicate 1 = 5737; cell count, replicate 2 = 5880; activity call = inactive
Nadk1b [DRSC25741] — infection score, replicate 1 = 6.86; infection score, replicate 2 = 2.58; cell count, replicate 1 = 6401; cell count, replicate 2 = 6347; activity call = inactive
